Pooled drug test results. Numbers come from NIAID ChemDB, via PubChem.

Shared fields: host cell toxicity; cell line: PBMC; read-out: CC50

CCn is the concentration with n% toxicity to the cells. a–b is a range or a potency band. An empty or dashed field is not shown. Neighbouring rows are from separate reports.

structure	method	value
Nc1ncnc2c1ncn2[C@H]1CC[C@@H](CO)O1	-	22 µM
CCCc1cc(=O)oc2c3c(c4c(c12)OC(C)(C)C=C4)O[C@H](C)[C@@H](C)[C@@H]3O	-	10–20 µM
Nc1ccn([C@H]2CC[C@@H](CO)O2)c(=O)n1	XTT	>10 µM
Nc1ncnc2c1ncn2[C@@H]1CC[C@H](CO)O1	-	>100 µM
Cc1cn([C@H]2C[C@H](N=[N+]=[N-])[C@@H](CO)O2)c(=O)[nH]c1=O	-	>3.076 µM
CC(C)[C@H](NC(=O)c1ccc2ccccc2n1)C(=O)N[C@@H](Cc1ccccc1)[C@H](O)CN1CC[C@@H](OCc2ccncc2)C[C@H]1C(=O)NC(C)(C)C	MTT	33 µM
CCCCN1C(=O)C(CC2CCCCC2)NC(=O)C12CCN(Cc1ccc3c(c1)OCCO3)CC2	MTT	50 µM
Cc1cn([C@H]2C[C@H](N=[N+]=[N-])[C@@H](CO)O2)c(=O)[nH]c1=O	-	>10 µM
O[C@]12C=C(Cc3cnccn3)[C@@H]3CCN(CCCC/C=C\CC1)C[C@@]31C[C@@H]3CCCCCCN3C12	trypan blue	14.1 µM
O=C(O)c1cc(O)cc(O)c1N=Nc1ccc(/C=C/c2ccc(N=Nc3c(O)cc(O)cc3C(=O)O)cc2S(=O)(=O)O)c(S(=O)(=O)O)c1	-	>100 µg/mL
Nc1nc(N)c2ncn([C@H]3CO[C@@H](CO)O3)c2n1	-	>1000 µM
C#C[C@]1(CO)O[C@@H](n2cnc3c(N)ncnc32)C=C1F	-	>100 µM
Cc1cn([C@@H]2O[C@H](CO)[C@@H](N=[N+]=[N-])[C@H]2O)c(=O)[nH]c1=O	-	>100 µM
CC(C)C(N[C@@H](Cc1ccccc1)[C@@H](O)[C@H](O)[C@H](Cc1ccccc1)NC(C(=O)OCc1ccccc1)C(C)C)C(=O)OCc1ccccc1	-	>10 µM
O=C(NCCc1c[nH]c2ccccc12)C1=Cc2ccncc2CC1	-	18.4 µM
Nc1nc(NC2CC2)c2ncn([C@H]3C=C[C@@H](CO)O3)c2n1	MTT	84.5 µM
c1ccc(CNCc2ccc(CN3CCCNCCNCCCNCC3)cc2)nc1	-	>300 µM
O=C(O)C(=O)CC(=O)c1cc(OCc2ccccc2)cc(OCc2ccccc2)c1	MTT	>10 µM
CC[C@H](C)[C@H](NC(=O)[C@H](C(C)C)[C@@H](O)[C@H](O)[C@H](CC1CCCCC1)NC(=O)[C@H](Cc1cnc[nH]1)NC(=O)COc1cccc2ccccc12)C(=O)NCc1ccccn1	-	>100 µM
CC1(C)C=Cc2c(ccc3cc(C(=O)c4ccncc4)c(=O)oc23)O1	-	>1001 µM
O=c1[nH]cnc2c1ncn2[C@H]1C=C[C@@H](CO)O1	-	>100 µM
Cc1cnc(CC2=C[C@@]3(O)CC/C=C\CCCCN4CC[C@@H]2[C@]2(C[C@@H]5CCCCCCN5C23)C4)cn1	trypan blue	13.5 µM
Nc1ncnc2c1ncn2CCOCP(=O)(O)O	MTT	>100 µM
CO[C@H]1CCCC[C@@H](c2ccccc2)OC(=O)C(C)[C@@]2(O)OC([C@@H](C)[C@H](O)[C@H]2OC)[C@@H](C)/C=C/[C@H]1OC	ATP	>50 µM
Nc1nc(=O)n([C@@H]2C=C(F)[C@H](CO)S2)cc1F	MTT	>100 µM
O[C@]12C=C(Cc3nccc4ccccc34)[C@@H]3CCN(CCCC/C=C\CC1)C[C@@]31C[C@@H]3CCCCCCN3C12	trypan blue	4.7 µM
Cc1cn([C@H]2C[C@H](N=[N+]=[N-])[C@@H](CO)O2)c(=O)[nH]c1=O	MTT	>100 µM
O=c1ccn(Cc2ccccc2)c(=O)[nH]1	-	351 µM
O=c1ccn([C@H]2C=C(F)[C@@H](CO)S2)c(=O)[nH]1	MTT	>100 µM
Cc1cc(C)cc(Cn2c(=S)ccn(Cc3c(F)cccc3F)c2=O)c1	-	>336 µM
Cc1cn([C@H]2C[C@H](N=[N+]=[N-])[C@@H](CO)O2)c(=O)[nH]c1=O	-	>100 µM
Cc1cn([C@H]2C[C@H](N=[N+]=[N-])[C@@H](CO)O2)c(=O)[nH]c1=O	-	>100 µM
CCC[C@@]1(CCc2ccccc2)CC(O)=C([C@H](CC)c2cccc(NS(=O)(=O)c3ccc(C(F)(F)F)cn3)c2)C(=O)O1	-	30 µM
O=Nc1c(-c2c(O)[nH]c3ccccc23)[nH]c2ccccc12	MTT	>4 µM
Cc1cc(Cl)nc(C)c1C(=O)NCC[C@@H](C)N1CCC(N(C(=O)Nc2cccnc2)c2ccsc2)CC1	-	>32.4 µM
Nc1ncnc2c1ncn2[C@@H]1CC[C@H](CO)O1	-	>100 µM
CCCCCC#Cc1cn(COCCO)c(=O)[nH]c1=O	-	>100 µM
Cc1cn([C@H]2C[C@H](N=[N+]=[N-])[C@@H](CO)O2)c(=O)n(N)c1=O	-	>100 µM
[N-]=[N+]=N[C@H]1[C@@H](O)[C@H](n2ccc(N)nc2=O)O[C@@H]1CO	-	>100 µM
Nc1nc2c(ncn2COCCO)c(=O)[nH]1	-	>100 µM
Nc1nc2c(ncn2[C@H]2OC[C@@](F)(C=CP(=O)(O)O)[C@H]2F)c(=O)[nH]1	MTT	>100 µM
O=c1ccn([C@H]2C=C[C@@H](CO)O2)c(=O)[nH]1	-	>100 µM
CC(=O)c1ccc(C)cc1NC(C(N)=O)c1c(Cl)cccc1Cl	-	65 µM
Cc1ccc(-c2ccc3c(c2)C=C(C(=O)Nc2ccc(C[N+](C)(C)C4CCOCC4)cc2)CCC3)cc1	MTT	50 µM
CC(C)(C)NC(=O)[C@@H]1C[C@@H]2CCCC[C@@H]2CN1C[C@@H](O)[C@H](Cc1ccccc1)NC(=O)[C@H](CC(N)=O)NC(=O)c1ccc2ccccc2n1	-	>10 µM
O=c1[nH]cnc2c1ncn2[C@H]1CC[C@@](F)(CCP(=O)(O)O)C1	MTT	80 µM
C1CNCCNCCCN(CCCN2CCCNCCNCCCNCC2)CCNC1	-	>300 µM
COc1ccc(C(C)(C)CCCC(C)C)c(OC)c1O	XTT	50.9 µM
Cc1cn([C@H]2C=C[C@@H](CO)O2)c(=O)[nH]c1=O	-	70 µM
Nc1nc(N)c2ncn([C@H]3CC[C@](OCP(=O)(O)O)(C(F)(F)F)C3)c2n1	MTT	98 µM
CSCC[C@H](NC(=O)[C@H](Cc1ccccc1)NC(=O)CNC(=O)CNC(=O)[C@@H](N)Cc1ccc(O)cc1)C(=O)O	-	650 µg/mL
Cc1cccc(Cn2c(=O)ccn(CC#N)c2=O)c1	-	302 µM
CCCCCc1ccc(C#Cc2cn(CC=C(CO)CO)c(=O)[nH]c2=O)cc1	-	3.4 µM
Cc1cc(Cl)nc(C)c1C(=O)NCC[C@@H](C)N1CCC(N(Cc2ccsc2)C(=O)NCCCCC(=O)O)CC1	MTS	>34.6 µM
CC(C)C(Cc1ccccc1)NC(=O)C[C@@H]1O[C@@H]1[C@H](Cc1ccccc1)NC(=O)[C@@H](NC(=O)C1=CC(=O)CC(C)(C)O1)C(C)(C)S(C)(=O)=O	-	>10 µM
COc1cc(O)cc(C(C)(C)CCCC(C)C)c1	XTT	46.4 µM
Nc1ccn([C@H]2C=C(F)[C@@H](CO)S2)c(=O)n1	MTT	>100 µM
CCCCCCCCCc1ccc(OCCOCCOCCOCCOCCOCCOCCOCCOCCO)cc1	-	25 µg/mL
CCCCCc1ccc(-c2cc3cn(CC=C(CO)CO)c(=O)nc3o2)cc1	-	11.1 µM
Cc1cn([C@H]2C=C(F)[C@@H](CO)S2)c(=O)[nH]c1=O	MTT	>100 µM
CCCc1cc(=O)oc2c3c(c4c(c12)OC(C)(C)C=C4)O[C@@H](C)[C@H](C)[C@@H]3O	-	10–20 µM
CC(C)OC(=O)N[C@H](C(=O)N[C@@H](Cc1ccccc1)[C@H]1O[C@H]1CC(=O)NC(Cc1ccccc1)C(C)C)C(C)(C)S(C)(=O)=O	-	>10 µM
Cc1cn([C@H]2C=C[C@@H](COC(=O)CCNC(=O)C(=O)/C=C(\O)c3cccn3Cc3ccc(F)cc3)O2)c(=O)[nH]c1=O	MTT	>10 µM
COC(=O)[C@H](C)NP(=O)(OC[C@@H]1C=C[C@H](n2cc(C)c(=O)[nH]c2=O)O1)Oc1ccc(Br)cc1	tetrazolium	>100 µM
O=c1[nH]cnc2c1ncn2[C@H]1CC[C@@H](CO)O1	-	>100 µM
CCCCCc1cc2cn(COCCO)c(=O)nc2o1	-	54.4 µM
Cc1cn([C@H]2C=C[C@@H](COC(=O)CCNC(=O)C(=O)/C=C(\O)c3cc(OCc4ccccc4)cc(OCc4ccccc4)c3)O2)c(=O)[nH]c1=O	MTT	>10 µM
OC[C@H]1C=C[C@@H](n2cnc3c2NCNC3=S)C1	-	>100 µM
COCC(=O)N[C@H](C(=O)N[C@@H](Cc1ccccc1)[C@H]1O[C@H]1CC(=O)NC(Cc1ccccc1)C(C)C)C(C)(C)S(C)(=O)=O	-	>10 µM
Cc1ccc(CCNC(=S)Nc2ccc(Br)cn2)cc1	-	>100 µM
Nc1ccn([C@H]2CC[C@@H](CO)C2)c(=O)n1	-	>100 µM
CCOP(=O)(C[C@@H]1C[C@H](n2cc(C)c(=O)[nH]c2=O)O[C@@H]1CO)OCC	trypan blue	>100 µM
Cc1cn([C@H]2C[C@H](N=[N+]=[N-])[C@@H](CO)O2)c(=O)[nH]c1=O	-	200 µM
[N-]=[N+]=N[C@H]1[C@@H](O)[C@H](n2cnc3c(N)ncnc32)O[C@@H]1CO	-	59.4 µM
O=C(/C=C(\O)c1cc(Cc2c(F)cccc2F)cn(Cc2ccccc2F)c1=O)C(=O)NN1CCCC1=O	MTS / tetrazolium	96.2 µM
O=c1[nH]cnc2c1ncn2[C@@H]1C=C[C@H](CO)O1	-	60 µM
O=c1ccn(Cc2ccccc2)c(=O)n1-c1ccccc1	-	216 µM
CCCCCCCCC#Cc1cn(C/C=C/C(O)CO)c(=O)[nH]c1=O	-	59.2 µM
Cc1cn([C@H]2C[C@H](F)[C@@H](CP(=O)(O)O)O2)c(=S)[nH]c1=O	-	>200 µM
N#CCn1ccc(=O)n(Cc2ccc3ccccc3c2)c1=O	-	229 µM
O=c1[nH]cnc2c1ncn2[C@H]1CC[C@@](F)(/C=C/P(=O)(O)O)C1	MTT	95 µM
Nc1ccn([C@H]2C=C[C@@H](CO)O2)c(=O)n1	-	65 µM
Cc1cn([C@H]2C[C@H]3COC[C@H]3O2)c(=O)[nH]c1=O	trypan blue	>100 µM
Nc1ncnc2c1ncn2[C@@H]1C=C[C@H](CO)O1	-	59 µM
O=c1ccn([C@H]2CC[C@@H](CO)O2)c(=O)[nH]1	-	>100 µM
O=c1[nH]cnc2c1ncn2[C@@H]1C=C(F)[C@H](CO)S1	MTT	>100 µM
Nc1ncnc2c1ncn2CCOCP(=O)(O)O	MTT	>100 µM
Nc1ncnc2c1ncn2[C@H]1CC[C@@H](CO)O1	-	>100 µM